The nature of the series: Selectivity index, ratio of TC50 for MDCK cells to IC50 for Influenza A virus A/95-359 infected in MDCK cells. As to conditions: dog.

Our source for the Selectivity Index values is ChEMBL document CHEMBL4196144, “Minor Nortriterpenoids from the Twigs and Leaves of Rhododendron latoucheae” (J Nat Prod, 2018).

In the case of `CCOC(=O)C1=C[C@@H](OC(CC)CC)[C@H](NC(C)=O)[C@@H](N)C1` [OSELTAMIVIR], the Selectivity Index was determined as 773.
